pKi: −log10 of the molar value.
Key:
HIV-1 protease [1] = target: T1, HIV-1 protease (Human immunodeficiency virus type 1 group M subtype B, UniProt P04585); assay: HIV-1 protease enzymatic activity inhibition at two temperatures; format: biochemical; conditions: for pKi: inhibition constant, chromogenic substrate, [S]<<Km
T1 construct: the enzymatic activity of the HIV- 1 protease was measured

HIV-1 protease [2] = target: T1, HIV-1 protease; assay: Binding enthalpy by calorimetric titrations; conditions: calorimetric titration

In the case of `CC(C)C[C@H](NC(=O)[C@H](CC(=O)O)NC(=O)[C@@H](N)CCC(=O)O)C(=O)O` [Glu—Asp—Leu], the “binding enthalpy calculated from the data in FIG. 3 using equation 6b” value (HIV-1 protease [1]; from inhibition constants at 15° C. and 35° C.) was -5 kcal/mol, the pKi (HIV-1 protease [1]; 15° C.) was 5.05 and the pKi (HIV-1 protease [1]; 35° C.) was 4.80. The “binding enthalpy measured directly by calorimetric titrations” value (HIV-1 protease [2]) was -3.6 kcal/mol.

— patent US20010008763A1, “Method for high throughput thermodynamic screening of ligands” (priority 1999, published 2001)
